Test results from paper PMC11464777, “Approved drugs successfully repurposed against Leishmania based on machine learning predictions” (Frontiers in Cellular and Infection Microbiology, 2024).

Test system: L. major and L. infantum amastigotes
Test: Anti-amastigote assay, stated across the three strains
Assay type: cell-based, Leishmania infantum, Leishmania major
Conditions: CC50/IC50 amastigotes
Description: THP-1-derived macrophages (5 × 10^4/well) were seeded in each 8-well Labtek slides (Thermo Scientific). Adherent macrophages were obtained as described above, then infected with stationary phase promastigotes of each strain at a ratio 10:1 (10 parasites/macrophage) in RPMI medium containing penicillin (100 U/mL) and streptomycin (100 μg/mL) with 10% fetal bovine serum (Gibco, Brazil) at 37°C in 5% CO2 for 24 h. […] Non-infected control cells were incubated in a supplemented RPMI medium containing 1% DMSO. After 72h of incubation, cells were fixed and stained using May-Grunwald-Giemsa staining with RAL 555 Kit (RAL DIAGNOSTICS, France), following the manufacturer’s instructions. The percentage of infected cells and the total number of internalized parasites per 100 macrophages were determined under immersion oil (magnification of 1000X) using light microscopy. The percentage of amastigotes viability was expressed as the percentage of total number of internalized parasites within treated cells relative to the total number of internalized parasites within control cells treated with 1% DMSO, and calculated as follows:
Relative amastigote viability (%) = [(number of amastigotes/100 treated cells)/(number of amastigotes/100 treated cells with1% DMSO)] * 100
The relative percentage of amastigote viability was evaluated to calculate half inhibitory concentrations (IC50). […]

| SMILES | Selectivity index (SI), span over strains |
| --- | --- |
| CCCC(=O)Nc1ccc(OCC(O)CNC(C)C)c(C(C)=O)c1 (centres unmarked) [Acebutolol] | moderate SI values |
| CCCNC(C)C(=O)Nc1ccccc1C (centres unmarked) [Prilocaine] | moderate SI values |
